A mixed list of measured activities; the numbers were collected in NIAID ChemDB.

All rows: whole-cell or culture tests; organism: HIV-1; method: cytopathic effect / MTT; endpoint: EC50

Rows are shuffled and stem from different studies. An empty or dashed field is not shown. a–b is a range or a potency band. ECn: concentration that inhibits the pathogen or its effect by n%.

| structure | mutations | conditions | cells | strain or isolate | value |
|---|---|---|---|---|---|
| CCOCn1c(Cc2cccc(OCC3CO3)c2)c(CC)c(=O)[nH]c1=O |  |  | MT-4 | RT-K103N Y181C Mutant NNRTI-resistant | >80 µM |
| CCCCCCC(C)[C@H]1CCC2C3CC[C@H]4C[C@@H](CCC=C(c5cc(Cl)c(O)c(C(=O)O)c5)c5cc(Cl)c(O)c(C(=O)O)c5)CC[C@]4(C)C3CC[C@@]21C |  |  | MT-4 | RF | 5.1 µM |
| O=C(O[C@H]1O[C@@H]2COC(=O)c3cc(O)c(O)c(O)c3-c3c(cc(O)c(O)c3O)C(=O)O[C@H]2[C@@H]2OC(=O)c3cc(O)c(O)c(O)c3-c3c(cc(O)c(O)c3O)C(=O)O[C@@H]12)c1cc(O)c(O)c(Oc2c(C(=O)O[C@H]3O[C@@H]4COC(=O)c5cc(O)c(O)c(O)c5-c5c(cc(O)c(O)c5O)C(=O)O[C@H]4[C@@H]4OC(=O)c5cc(O)c(O)c(O)c5-c5c(cc(O)c(O)c5O)C(=O)O[C@@H]34)cc(O)c(O)c2O)c1 |  |  | MT-4 | IIIB | >50 µg/mL |
| CCC(C)[C@@H](C(=O)N[C@@H](Cc1ccccc1)[C@H](O)CN(CC1CCCC1)S(=O)(=O)c1ccc(/C=N/O)cc1)N1CCN(Cc2cccc(C)n2)C1=O | PR-L10F V32I M46I I47V Q68E I84V |  | MT-4 | A17 (LPV-resistant) | 0.0004 µM |
| CCc1c(Cc2cccc(Cc3[nH]c(=O)[nH]c(=O)c3CC)c2)[nH]c(=O)[nH]c1=O | RT-Y181C |  | MT-4 | NNRTI-resistant | >100 µM |
| C[C@]12CCC3C(CC[C@H]4C[C@@H](CCC=C(c5cc(Cl)c(O)c(C(=O)O)c5)c5cc(Cl)c(O)c(C(=O)O)c5)CC[C@]34C)C1CC[C@@H]2CCC=C(c1cc(Cl)c(O)c(C(=O)O)c1)c1cc(Cl)c(O)c(C(=O)O)c1 |  |  | MT-4 | RF | 1.3 µM |
| O=C(OC1OC2COC(=O)c3cc(Oc4c(C(=O)OC5OC6COC(=O)c7cc(O)c(O)c(O)c7-c7c(cc(O)c(O)c7O)C(=O)OC6C(OC(=O)c6cc(O)c(O)c(O)c6)C5OC(=O)c5cc(O)c(O)c(O)c5)cc(O)c(O)c4O)c(O)c(O)c3-c3c(cc(O)c(O)c3O)C(=O)OC(C2O)C1O)c1cc(O)c(O)c(O)c1 |  |  | MT-4 | IIIB | >50 µg/mL |
| CCC(C)[C@@H](C(=O)N[C@@H](Cc1ccccc1)[C@H](O)CN(CC(C)C)S(=O)(=O)c1ccc(/C=N/O)cc1)N1CCN(Cc2ccccn2)C1=O | PR-L10F V32I M46I I47V Q68E I84V |  | MT-4 | A17 (LPV-resistant) | 0.012 µM |
| C=CCOc1cccc(Cc2nc(SC)[nH]c(=O)c2CC)c1 |  |  | MT-4 | RT-Y181C Mutant NNRTI-resistant | >80 µM |
| O=C[C@H](OC(=O)c1cc(O)c(O)c(O)c1)[C@@H](OC(=O)c1cc(O)c(O)c(O)c1)[C@@H]1OC(=O)c2cc(O)c(O)c(O)c2-c2c(cc(O)c(O)c2O)C(=O)OC[C@H]1O |  |  | MT-4 | IIIB | >25 µg/mL |
| Cc1ccc(CN2CCN([C@H](C(=O)N[C@@H](Cc3ccccc3)[C@H](O)CN(CC(C)C)S(=O)(=O)c3ccc(/C=N/O)cc3)C(C)(C)C)C2=O)cn1 |  | 50% human serum | MT-4 |  | 0.012 µM |
| COc1c(Cl)cc(C(=CCNC(=O)C[C@H]2CC[C@]3(C)C4CC[C@@]5(C)C(CC[C@@H]5CC(=O)NCC=C(c5cc(Cl)c(OC)c(C(=O)O)c5)c5cc(Cl)c(OC)c(C(=O)O)c5)C4CC[C@H]3C2)c2cc(Cl)c(OC)c(C(=O)O)c2)cc1C(=O)O |  |  | CEM + CEM-SS | RF | 35 µM |
| CCC(C)[C@@H](C(=O)N[C@@H](Cc1ccccc1)[C@H](O)CN(CC(C)C)S(=O)(=O)c1ccc(/C=N/O)cc1)N1CC(=O)N(Cc2ccccn2)C1=O | PR-L10F V32I M46I I47V Q68E I84V |  | MT-4 | A17 (LPV-resistant) | 0.006 µM |
| COc1c(Cl)cc(C(=CCCCCN[C@@H]2CC[C@]3(C)C4CC[C@@]5(C)C(CC[C@@H]5C(C)CCCC(C)C)C4CC[C@H]3C2)c2cc(Cl)c(OC)c(C(=O)O)c2)cc1C(=O)O |  |  | CEM + CEM-SS | IIIB | >150 µM |
| CC(C)CN(C[C@@H](O)[C@H](Cc1ccccc1)NC(=O)O[C@H]1CO[C@H]2OCC[C@H]21)S(=O)(=O)c1ccc2nc(N)oc2c1 |  |  | MT-4 | LAI WT | 0.0199 µM |
| O=C1OC2OC3COC(=O)c4cc(O)c(O)c(O)c4-c4c(cc(O)c(O)c4O)C(=O)OC3C(OC(=O)c3cc(O)c(O)c(O)c3)C2OC(=O)c2cc(O)c(O)c(O)c2Oc2cc(cc(O)c2O)C(=O)OC2OC3COC(=O)c4cc(O)c(O)c(O)c4-c4c(cc(O)c(O)c4O)C(=O)OC3C(OC(=O)c3cc(O)c(O)c(O)c3)C2OC(=O)c2cc(O)c(O)c(O)c2Oc2cc1cc(O)c2O |  |  | MT-4 | IIIB | 25 µg/mL |
| N#CC1=CC2C(c3ccccc3N2CCN2CCCCC2)N(c2ccc(C#N)cc2)C1=O |  |  | MT-4 | LAI | 1–32 µM |
| CC(C)CN(C[C@@H](O)[C@H](Cc1ccccc1)NC(=O)OC1COC2OCCNC12)S(=O)(=O)c1ccc2nc(N)oc2c1 |  |  | MT-4 | LAI WT | 0.5623 µM |
| CC(C)Cc1nc(-c2ccc(S(=O)(=O)N(CC(C)C)C[C@@H](O)[C@H](Cc3ccccc3)NC(=O)O[C@H]3CO[C@H]4OCC[C@H]43)cc2)co1 |  |  | MT-4 | LAI | 0.008 µM |
| O=C(OC1OC2COC(=O)c3cc(O)c(O)c(O)c3-c3c(cc(O)c(O)c3O)C(=O)OC2C(OC(=O)c2cc(O)c(O)c(O)c2)C1OC(=O)c1cc(O)c(O)c(O)c1)c1cc(O)c(O)c(O)c1 |  |  | MT-4 | IIIB | >50 µg/mL |
| Cc1cncc(C)c1OCC(=O)N[C@@H](Cc1ccccc1)[C@H](O)CN(CC(C)C)S(=O)(=O)c1ccc2nc(N)oc2c1 |  |  | MT-4 | LAI WT | 0.0085 µM |
| C=CCCc1cccc(Cc2[nH]c(=O)[nH]c(=O)c2CC)c1 |  |  | MT-4 | IIIB | >66 µM |
| CCOC(=O)C(CC)C(=O)Cc1cccc(Cc2[nH]c(=O)c(CC)c(O)c2CC)c1 | RT-K103N Y181C |  | MT-4 | RT-K103N+Y181C NNRTI-resistant | >100 µM |
| CC(C)CN(C[C@@H](O)[C@H](Cc1ccccc1)NC(=O)OCc1cncs1)S(=O)(=O)c1ccc2nc(N)oc2c1 |  |  | MT-4 | LAI WT | 0.0066 µM |
| C=CCOc1cccc(Cc2nc(SC(C)C)nc(OC(C)C)c2CC)c1 |  |  | MT-4 | IIIB | >100 µM |
| CC(C)CN(C[C@@H](O)[C@H](Cc1ccccc1)NC(=O)O[C@H]1CO[C@H]2OCC[C@H]21)S(=O)(=O)c1ccc(-c2csc(NCCCN(C)C)n2)cc1 | PR-L010F M046I M071V I084V |  | MT-4 |  | 2.528 µM |
| CCOC(=O)c1ccc(N2C(=O)C=CC3C2c2ccccc2N3C)cc1 |  |  | MT-4 | LAI | >32 µM |
| C=CCOc1cccc(Cc2[nH]c(=O)[nH]c(=O)c2CC)c1 |  |  | MT-4 | RT-K103N Y181C Mutant NNRTI-resistant | >20 µM |
| Cn1c2ccccc2c2c1cc(C#N)c(=O)n2-c1ccc([N+](=O)[O-])cc1 | RT-K103N Y181C |  | MT-4 | H | 0.13 µM |
| Cc1cc(Br)cc(C)c1OCC(=O)N[C@@H](Cc1ccccc1)[C@H](O)CN(CC(C)C)S(=O)(=O)c1ccc(-c2csc(N)n2)cc1 |  |  | MT-4 | LAI | 5.012 µM |
| Cc1cccc(C)c1OCC(=O)N[C@@H](Cc1ccccc1)[C@H](O)CN(CC(C)C)S(=O)(=O)c1ccc2nc(N)oc2c1 |  |  | MT-4 | LAI WT | 0.0158 µM |
| CCc1c(Cc2cccc(Cc3nc(N(C)C)[nH]c(=O)c3CC)c2)nc(N(C)C)[nH]c1=O | RT-Y181C |  | MT-4 | NNRTI-resistant | >100 µM |
| O=C(OC1OC2COC(=O)c3cc(Oc4c(C(=O)OC5OC6COC(=O)c7cc(O)c(O)c(O)c7-c7c(cc(O)c(O)c7O)C(=O)OC6C(OC(=O)c6cc(O)c(O)c(O)c6)C5OC(=O)c5cc(O)c(O)c(O)c5)cc(O)c(O)c4O)c(O)c(O)c3-c3c(cc(O)c(O)c3O)C(=O)OC2C(OC(=O)c2cc(O)c(O)c(O)c2)C1OC(=O)c1cc(O)c(O)c(O)c1)c1cc(O)c(O)c(O)c1 |  |  | MT-4 | IIIB | 11.8 µg/mL |
| C=CCOc1cccc(Cc2[nH]c(=S)[nH]c(=O)c2CC)c1 |  |  | MT-4 | RT-Y181C Mutant NNRTI-resistant | >20 µM |
| Cc1cccc(C)c1OCC(=O)N[C@@H](Cc1ccccc1)[C@H](O)CN(CC(C)C)S(=O)(=O)c1ccc(-c2ccnn2C(C)(C)C)cc1 |  |  | MT-4 | LAI | 6.31 µM |
| CCC(C)[C@@H](C(=O)N[C@@H](Cc1ccccc1)[C@H](O)CN(CC(C)C)S(=O)(=O)c1ccc(/C=N/O)cc1)N1CCN(Cc2ccc(OC)nc2)C1=O |  | 50% human serum | MT-4 |  | 0.01 µM |
| CC(C)CN(C[C@@H](O)[C@H](Cc1ccccc1)NC(=O)O[C@H]1CO[C@H]2OCC[C@H]21)S(=O)(=O)c1ccc(-c2coc(CCC(=O)O)n2)cc1 |  |  | MT-4 | LAI | 0.063 µM |
| N#CC1=CC2Nc3ccccc3C2N(c2ccc(F)c([N+](=O)[O-])c2)C1=O |  |  | MT-4 | LAI | 1–32 µM |
| CCOCn1c(Cc2cccc(Cc3[nH]c(=O)[nH]c(=O)c3CC)c2)c(CC)c(=O)[nH]c1=O |  |  | MT-4 |  | 47 µM |
| CC(C)CN(C[C@@H](O)[C@H](Cc1ccccc1)NC(=O)O[C@H]1CO[C@H]2OCC[C@H]21)S(=O)(=O)c1ccc(-c2cnc(NC(=O)O[C@H]3CO[C@H]4OCC[C@H]43)[nH]2)cc1 |  |  | MT-4 | LAI | 0.2 µM |

For reference, 6 entries again:

| structure | mutations | conditions | cells | strain or isolate | value |
|---|---|---|---|---|---|
| CCOC(=O)C(CC)C(=O)Cc1cccc(Cc2[nH]c(=O)c(CC)c(O)c2CC)c1 | RT-K103N Y181C |  | MT-4 | RT-K103N+Y181C NNRTI-resistant | >100 µM |
| CC(C)CN(C[C@@H](O)[C@H](Cc1ccccc1)NC(=O)O[C@H]1CO[C@H]2OCC[C@H]21)S(=O)(=O)c1ccc(-c2coc(CCC(=O)O)n2)cc1 |  |  | MT-4 | LAI | 0.063 µM |
| CC(C)CN(C[C@@H](O)[C@H](Cc1ccccc1)NC(=O)OCc1cncs1)S(=O)(=O)c1ccc2nc(N)oc2c1 |  |  | MT-4 | LAI WT | 0.0066 µM |
| C=CCOc1cccc(Cc2nc(SC)[nH]c(=O)c2CC)c1 |  |  | MT-4 | RT-Y181C Mutant NNRTI-resistant | >80 µM |
| CC(C)CN(C[C@@H](O)[C@H](Cc1ccccc1)NC(=O)O[C@H]1CO[C@H]2OCC[C@H]21)S(=O)(=O)c1ccc(-c2csc(NCCCN(C)C)n2)cc1 | PR-L010F M046I M071V I084V |  | MT-4 |  | 2.528 µM |
| Cn1c2ccccc2c2c1cc(C#N)c(=O)n2-c1ccc([N+](=O)[O-])cc1 | RT-K103N Y181C |  | MT-4 | H | 0.13 µM |